A mixed list of measured activities; the numbers were collected in NIAID ChemDB.

Common to all: cytotoxicity tests; cells: CEM; read-out: CC50

An empty or dashed field is not shown.

smiles	read by	result
COc1ccc(C(=O)CSc2cc(Cl)c(C)cc2S(=O)(=O)n2cccc2)cc1	XTT	38.5 µM
Cc1cn([C@H]2C[C@H](N=[N+]=[N-])[C@@H](COP(=O)(Nc3cc(C(=O)Nc4cc(C(=O)Nc5cc(C(=O)Nc6cc(C(=O)NCCC(=N)N)n(C)c6)n(C)c5)n(C)c4)n(C)c3)OC3CCCCC3)O2)c(=O)[nH]c1=O	MTT	>200 µM
COC(=O)c1ccccc1SSc1ccccc1C(=O)OC		9.3 µM
CC(C)OC(=S)Nc1ccc(Cl)c(C(=O)SC(C)C)c1		27.12 µM
CCOCn1c(Cc2cc(C)cc(C)c2)c(CC)c(=O)[nH]c1=O		88.6 µM
O=C(CN1c2c(-c3ccccc3)n[nH]c2-c2ccccc2S1(=O)=O)N/N=C/c1cccc([N+](=O)[O-])c1		15.2 µM
Cc1ccc(NC(=O)c2ccccc2SSc2ccccc2C(=O)Nc2ccc(C)cc2)cc1		28 µM
CC(C)OC(=S)Nc1ccc(Cl)c(C(=O)OCC(F)(F)F)c1		157 µM
Cc1cc(S(=O)(=O)N2CCNC2=O)c(SC(=O)c2ccccc2)cc1Cl	XTT	75 µM
CC1(CO)CCC(Cn2nnc3c(N)nc(N)nc32)C1(C)C		108 µg/mL
Cc1cc(C)cc(Sc2c(C(C)C)c(=O)[nH]c(=O)n2CCC2=CCCC2)c1		23.9 µM
CO[C@@H]1N([C@H]2C[C@H](F)[C@@H](CO)O2)C(=O)NC(=O)[C@@]1(C)I	XTT	12.2 µM
Cc1cc(C)cc(Sc2c(C(C)C)c(=O)[nH]c(=S)n2COCCO)c1		66.8 µM
O=C(O)c1ccc(NC(=O)c2ccccc2SSc2ccccc2C(=O)Nc2ccc(C(=O)O)cc2)cc1		28 µM
Cc1cn([C@H]2C[C@H](N=[N+]=[N-])[C@@H](COP(=O)(Nc3cc(C(=O)Nc4cc(C(=O)Nc5cc(C(=O)NCCC(=N)N)n(C)c5)n(C)c4)n(C)c3)OC(C)C)O2)c(=O)[nH]c1=O	MTT	89 µM
CC1=C(C(=O)Nc2ccc(Cl)c(C(=O)OC3CCCC3)c2)SCCO1		6.4 µg/mL
CC(C)=CCOc1cc(NC(=S)c2ccoc2C)ccc1Cl		>20 µM
NS(=O)(=O)c1ccc(C(=O)Nc2ccccc2SSc2ccccc2NC(=O)c2ccc(S(N)(=O)=O)cc2)cc1		27 µM
Cc1cn([C@H]2C=C[C@@H](COP(=O)(Nc3cc(C(=O)Nc4cc(C(=O)Nc5cc(C(=O)NCCC(=N)N)n(C)c5)n(C)c4)n(C)c3)OC(C)C)O2)c(=O)[nH]c1=O	MTT	133 µM
CC1=C(C(=O)N(C)c2ccc(Cl)c(C(=O)OC(C)C)c2)SCCO1		26 µg/mL
CCc1c(Oc2cc(C)cc(C)c2)n(CC2CCC2)c(=O)[nH]c1=O		>1210 µM
CC(C)OC(=O)c1cc(NC(=S)OC(C)C)ccc1Cl		38 µM
Cc1cc(S(=O)(=O)n2cccc2)c(SCC(=O)n2cccc2)cc1Cl	XTT	86.5 µM
CC1(CO)CCC(Cn2cnc3c(Cl)nc(N)nc32)C1(C)C		17.5 µg/mL
Nc1nc(=O)n([C@@H]2O[C@H](CO)C[C@@H]2F)cc1F		>580 µM
CCOCn1c(Sc2cc(C)cc(C)c2)c(CC)c(=O)[nH]c1=S		>100 µM
CCN(CC)c1ccc(/C=N/NC(=O)CN2c3c(-c4ccccc4)n[nH]c3-c3ccccc3S2(=O)=O)cc1		12.5 µM
Cc1cc(C)cc(C(=O)c2c(C(C)C)c(=O)[nH]c(=O)n2Cc2ccccc2)c1		22.3 µM
CC(C)OC(=S)Nc1ccc(Cl)c(C(=O)OC2CC2)c1		47.8 µM
Cc1cc(C)cc(C(=O)c2c(C(C)C)c(=O)[nH]c(=O)n2CCC2CCCC2)c1		23.8 µM
CC(C)OC(=S)Nc1ccc(Cl)c(COC(C)(C)C)c1		34.82 µM
CO[C@H]1N([C@H]2C[C@H](F)[C@@H](CO)O2)C(=O)NC(=O)[C@]1(C)Cl	XTT	>800 µM
CCCCC(CC)COC(=O)c1cc(NC(=S)OC(C)C)ccc1Cl		41.5 µM
O=C1Nc2ccc(Cl)cc2[C@@](C#CC2CC2)(C(F)(F)F)O1	MTT / absorbance	>50 µM
CCOCn1c(Sc2cc(C)cc(C)c2)c(CC)c(=O)[nH]c1=O		>100 µM
COCCOC(=S)Nc1ccc(Cl)c(C(=O)OC(C)C)c1		60.27 µM
COC(=O)c1cc(NC(=O)C2=C(C)OCCS2)ccc1Cl		>100 µg/mL
Cc1cc(C)cc(C(=O)c2c(C(C)C)c(=O)[nH]c(=O)n2CC2CCCCC2)c1		44.7 µM
Nc1ccn([C@H]2CS[C@@H](CO)O2)c(=O)n1		2 µM
CC1=C(C(=O)Nc2cc(C(=O)OC(C)C)c(C)cc2F)SCCO1		>100 µg/mL
Cc1cc(C)cc(Sc2c(C(C)C)c(=O)[nH]c(=O)n2CC2CCCC2)c1		14.2 µM
CC(C)COC(=O)c1cc(NC(=S)OC(C)C)ccc1Cl		30.32 µM
Cc1cn([C@H]2C[C@H](N=[N+]=[N-])[C@@H](COP(=O)(Nc3cc(C(=O)Nc4cc(C(=O)Nc5cc(C(=O)NCCC(=N)N)n(C)c5)n(C)c4)n(C)c3)OC3CCCCC3)O2)c(=O)[nH]c1=O	MTT	156 µM
Cc1cc(S(=O)(=O)n2cccc2)c(SCC(N)=O)cc1Cl	XTT	107 µM
CCC1=C(C(=O)Nc2ccc(Cl)c(C(=O)OCC(C)C)c2)SCCO1		24 µg/mL
CCOCn1c(Sc2ccccc2)c(CC)c(=O)[nH]c1=O		77.4 µM
CO[C@@H]1N([C@H]2C[C@H](F)[C@@H](CO)O2)C(=O)NC(=O)[C@@]1(C)Br	XTT	9.72 µM
CC1(CO)CCC(Cn2cnc3c(=O)[nH]c(N)nc32)C1(C)C		>200 µg/mL
CO/N=C/c1cc(NC(=S)OC(C)C)ccc1Cl		348.7 µM
Cc1cc(C)cc(Oc2c(C(C)C)c(=O)[nH]c(=O)n2CC2CCCCC2)c1		55.6 µM
CCCCOC(=O)c1cc(NC(=O)C2=C(C)OCCS2)ccc1Cl		22 µg/mL
CC(C)(C)NC(=O)c1ccccc1SSc1ccccc1C(=O)NC(C)(C)C		>100 µM
CC(C)OC(=O)c1cc(NC(=S)SC(C)C)ccc1Cl		84.4 µM
O=C(CN1c2c(-c3ccccc3)n[nH]c2-c2ccccc2S1(=O)=O)N/N=C/c1ccccc1F		15.4 µM
CCc1c(Sc2ccccc2)n(COCc2ccccc2)c(=S)[nH]c1=O		>100 µM
CCCC1=C(C(=O)Nc2ccc(Cl)c(C(=O)OCC)c2)SCCO1		>100 µg/mL
CC(=O)OCCOC(=O)c1cc(NC(=S)OC(C)C)ccc1Cl		47.24 µM
NS(=O)(=O)c1ccc(OC(=O)c2ccccc2SSc2ccccc2C(=O)Oc2ccc(S(N)(=O)=O)cc2)cc1		>162 µM
CC(C)OC(=O)Nc1ccc(Cl)c(C(=O)OC(C)C)c1		>333.6 µM
CO[C@H]1N([C@H]2C[C@H](N=[N+]=[N-])[C@@H](CO)O2)C(=O)NC(=O)[C@]1(C)Br	XTT	>898 µM
Nc1nc2c(ncn2[C@H]2C=C[C@@H](CO)C2)c(=O)[nH]1		189 µg/mL
O=C(CN1c2c(-c3ccccc3)n[nH]c2-c2ccccc2S1(=O)=O)N/N=C/c1ccc(Br)cc1		12.6 µM
CCc1c(Sc2cc(C)cc(C)c2)n(CCC2C=CCC2)c(=O)[nH]c1=O		6.8 µM
CC(C)c1c(Sc2ccccc2)n(COCc2ccccc2)c(=O)[nH]c1=O		>100 µM
O=C(CN1c2c(-c3ccccc3)n[nH]c2-c2ccccc2S1(=O)=O)N/N=C/c1cccc(Br)c1		6.8 µM
CC1=C(C(=O)Nc2cccc(C(=O)OC(C)C)c2)SCCO1		24 µg/mL
CC[C@H](C)[C@H](NC(=O)c1ccccc1SSc1ccccc1C(=O)N[C@H](C(=O)O)[C@@H](C)CC)C(=O)O		140 µM
CC[C@H](C)OC(=S)Nc1ccc(Cl)c(C(=O)OC(C)C)c1		29.71 µM
Nc1ccn([C@@H]2O[C@H](CO)[C@@H](CO)[C@@H]2F)c(=O)n1		≥100 µM

Repeating the final 8 entries:

smiles,read by,result
O=C(CN1c2c(-c3ccccc3)n[nH]c2-c2ccccc2S1(=O)=O)N/N=C/c1ccc(Br)cc1,,12.6 µM
CCc1c(Sc2cc(C)cc(C)c2)n(CCC2C=CCC2)c(=O)[nH]c1=O,,6.8 µM
CC(C)c1c(Sc2ccccc2)n(COCc2ccccc2)c(=O)[nH]c1=O,,>100 µM
O=C(CN1c2c(-c3ccccc3)n[nH]c2-c2ccccc2S1(=O)=O)N/N=C/c1cccc(Br)c1,,6.8 µM
CC1=C(C(=O)Nc2cccc(C(=O)OC(C)C)c2)SCCO1,,24 µg/mL
CC[C@H](C)[C@H](NC(=O)c1ccccc1SSc1ccccc1C(=O)N[C@H](C(=O)O)[C@@H](C)CC)C(=O)O,,140 µM
CC[C@H](C)OC(=S)Nc1ccc(Cl)c(C(=O)OC(C)C)c1,,29.71 µM
Nc1ccn([C@@H]2O[C@H](CO)[C@@H](CO)[C@@H]2F)c(=O)n1,,≥100 µM

CCn: concentration that lowers growth or viability of the cells by n%. Lines come from different laboratories, so protocols vary.